The subject of this data set is human immunodeficiency virus (HIV) Type I, strain HTLV-IIIB. Briefly: Neutralization control: cytotoxicity control dilutions challenged with low titer stock virus. It is filed as cell-based, HIV Type 1. The conditions noted are these: low titer stock virus challenge, MT-2 cells.

We go through one compound from patent US20110045103A1, “METHODS FOR TREATING AIDS” (priority 2009, published 2011).

No dose or concentration is given here for some results.

In the case of `Cl.N` [Ammonium Chloride, ammonium chloride], the “Neutralization control: test substance neutralized at a TCID50 of” value is given as “of ≦1.5 Log10”. In addition, the “Neutralization control: test substance neutralized at a TCID50 of” value (listed as test substance) was at most 1.5 Log10.
